Assays:
Experiment in all cases: Thermal proteome profiling (TPP)
HCON_00134350 = assay type: binding, Haemonchus contortus; conditions: compound 50 μM, H. contortus lysate, 37-67 °C
F30A10.9 = assay type: binding, Caenorhabditis elegans; conditions: compound 50 μM, C. elegans lysate, 37-67 °C
DNC-4 = assay type: binding, Caenorhabditis elegans; conditions: compound 50 μM, C. elegans lysate, 37-67 °C
H14N18.4 = assay type: binding, Caenorhabditis elegans; conditions: compound 50 μM, C. elegans lysate, 37-67 °C
D1086.10 = assay type: binding, Caenorhabditis elegans; conditions: compound 50 μM, C. elegans lysate, 37-67 °C
HCON_00099760 = assay type: binding, Haemonchus contortus; conditions: compound 50 μM, H. contortus lysate, 37-67 °C
F15B9.8 = assay type: binding, Caenorhabditis elegans; conditions: compound 50 μM, C. elegans lysate, 37-67 °C
GST-15 = assay type: binding, Caenorhabditis elegans; conditions: compound 50 μM, C. elegans lysate, 37-67 °C
C01G6.4 = assay type: binding, Caenorhabditis elegans; conditions: compound 50 μM, C. elegans lysate, 37-67 °C
ZNF-598 = assay type: binding, Caenorhabditis elegans; conditions: compound 50 μM, C. elegans lysate, 37-67 °C
PINN-4 = assay type: binding, Caenorhabditis elegans; conditions: compound 50 μM, C. elegans lysate, 37-67 °C
HCON_00021470 = assay type: binding, Haemonchus contortus; conditions: compound 50 μM, H. contortus lysate, 37-67 °C

Measured: thermal stability of protein in the presence of compound

C(#Cc1ccc(-c2ccn[nH]2)cc1)c1ccccc1 [UMW-9729]
stabilised: all assays above
